From ChEMBL document CHEMBL1157953, “Antiviral flavans from the leaves of Pithecellobium clypearia” (J Nat Prod, 2006)

Assay: Selectivity index, CC50 for human Hep2 cells to IC50 for RSV Long
Assay type: functional, HEp-2
How it was run: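 SI = CC50/IC50. CC50 came from an MTT assay: confluent monolayers were exposed in triplicate to sample dilutions for 3 days, then MTT was added for 3 h, formazan was dissolved in DMSO, and OD was read at 540/690 nm. CC50 is the concentration cutting viable cells to 50% of control. IC50 came from the CPE reduction assay in the matching cell line.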

NC(=O)c1ncn([C@@H]2O[C@H](CO)[C@@H](O)[C@H]2O)n1 [RIBAVIRIN]
Ratio CC50/IC50: 20.8
